The record followed here is ChEMBL document CHEMBL3861953 (J Med Chem, 2016).

Molecules are shown by their SMILES. The source made the active and inactive calls. No cut-off for these calls is given here.

The subject of the first assay is Legionella pneumophila. The experiment in a line: Antibacterial activity against Legionella pneumophila axenic forms harboring GFP at 30 uM by spectrophotometric method.
With `CC(C)C[C@H](C(=O)O)N1C(=O)/C(=C/c2ccc(N(C)C)c3ccccc23)SC1=S`, the result was Active.

As for `CC(C)C[C@@H](C(=O)O)N1C(=O)/C(=C/c2ccc(N(C)C)c3ccccc23)SC1=S`, the result was Active.

For the compound `O=C(O)[C@H](Cc1c[nH]c2ccccc12)N1C(=O)/C(=C/c2c3ccccc3c(Cl)c3ccccc23)SC1=S`, the result was Active.

On to `Cc1ccc(/C=C2\SC(=S)N([C@H](Cc3c[nH]c4ccccc34)C(=O)O)C2=O)c2ccccc12`, for which the result was Active.

On to `Cc1ccc(/C=C2\SC(=S)N([C@@H](Cc3c[nH]c4ccccc34)C(=O)O)C2=O)c2ccccc12`, for which the result was Active.

As to `CCCCC(C(=O)O)N1C(=O)/C(=C/c2ccc(N(C)C)c3ccccc23)SC1=S` (stereo not given), the result was Active.

Take `CN(C)c1ccc(/C=C2\SC(=S)N([C@@H](Cc3c[nH]c4ccccc34)C(=O)O)C2=O)c2ccccc12`: the result was Active.

As for `CCCC(C(=O)O)N1C(=O)/C(=C/c2ccc(N(C)C)c3ccccc23)SC1=S` (stereo not given), the outcome was Active.

`CC(C)CC(N1C(=O)/C(=C/c2ccc(N(C)C)c3ccccc23)SC1=S)P(=O)(O)O` (stereo not given): the outcome was Active.

The test system of the next assay is Mycobacterium tuberculosis. Nature of the assay: Potency index, ratio of triclosan IC50 to compound IC50 for recombinant Mycobacterium tuberculosis InhA expressed in Escherichia coli Rosetta (DE3) pLysS.
For `O=C(O)[C@H](Cc1c[nH]c2ccccc12)N1C(=O)/C(=C/c2c3ccccc3c(Cl)c3ccccc23)SC1=S`, the Ratio IC50 is 2.
